Source: patent US20220322671A1, “METHODS TO REDUCE CONTAMINATION, BIOFILM AND FOULING FROM WATER SYSTEMS, SURFACES, AND PRODUCTS” (Aequor, Inc., priority 2019, published 2022)

Assays:
E. coli ATCC 11775 = assay: MIC broth microdilution, E. coli; format: cell-based
P. aeruginosa NR-31041 = assay: MIC broth microdilution, P. aeruginosa; format: cell-based, Pseudomonas aeruginosa

| Compound | Minimum Inhibitory Concentration (MIC) M07-09 Method, EC (E. coli ATCC 11775) | Minimum Inhibitory Concentration (MIC) M07-09 Method, PA (P. aeruginosa NR-31041) |
| --- | --- | --- |
| Bis(2,2,2-trifluoroethyl) phosphite | 0.500 % v/v | – |
| CCOP(=O)(OCC)C(F)(F)Br | 0.100 % v/v | 0.100 % v/v |
